The values below come from doi:10.1101/2025.11.10.687524 (bioRxiv, 2025).

This experiment has as its target T1, SurA(I297C)-His10 (disulfide-crosslinked SurA–BAM complex 2) (E. coli, UniProt P0ABZ6 21-428, I297C).
T1 sequence (looked up): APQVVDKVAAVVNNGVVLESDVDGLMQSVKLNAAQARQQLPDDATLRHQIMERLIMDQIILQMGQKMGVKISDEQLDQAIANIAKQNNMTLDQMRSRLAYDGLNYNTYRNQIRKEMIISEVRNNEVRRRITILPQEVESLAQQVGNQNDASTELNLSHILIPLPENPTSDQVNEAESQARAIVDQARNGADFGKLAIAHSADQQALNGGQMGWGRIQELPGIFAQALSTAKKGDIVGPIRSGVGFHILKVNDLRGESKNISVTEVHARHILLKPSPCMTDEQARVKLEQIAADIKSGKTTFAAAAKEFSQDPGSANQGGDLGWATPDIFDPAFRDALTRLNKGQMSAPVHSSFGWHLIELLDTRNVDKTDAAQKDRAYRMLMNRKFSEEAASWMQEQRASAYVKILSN
In words: cryo-EM structure.

B1: BamE(Y57C) (untagged, disulfide-crosslinked SurA–BAM complex 2) (natural protein)
chain: not shown
In the case of B1, the binding result was “binds”.
